Results of unrelated studies side by side (data: NIAID ChemDB).

Shared fields: growth or infection tests

Blank or dashed fields: not listed here. Neighbouring rows are from separate reports. MIC50, MIC90 and the like: level of inhibition, or share of isolates inhibited. Two numbers with a dash give a range or band. Inhibition is in % at the dose shown (toxicity tests: loss of growth or viability). ECn is the concentration giving n% inhibition of infection, replication or growth.

| structure | dose | organism | strain | cells | endpoint | read by | value |
|---|---|---|---|---|---|---|---|
| Oc1ccccc1N=Cc1ccc(O)c(O)c1O | - | Cryptococcus gattii | 196L/03 | - | MIC99 | - | 22.6 µg/mL |
| NC[C@@H]1O[C@H](O[C@H]2[C@@H](O)[C@H](O[C@@H]3[C@@H](O)[C@H](N)C[C@H](N)[C@H]3O[C@H]3O[C@H](CO)[C@@H](O)[C@H](O)[C@H]3N)O[C@@H]2CO)[C@H](N)[C@@H](O)[C@@H]1O | 50 µM | Cryptosporidium parvum | - | - | inhibition | - | 19% |
| CCOC(=O)c1c(C)nc(NCCCNc2ccnc3cc(Cl)ccc23)nc1-c1ccccc1 | - | Cryptococcus gattii | 196L/03 | - | MIC99 | - | 8 µg/mL |
| Cn1nc(Cc2ccc(Cl)cc2)c2ccccc2c1=O | - | Cryptococcus neoformans | ATCC 32264 | - | MFC | broth dilution | 15.6 µg/mL |
| COc1cccc2c1C(=O)c1cnn(C)c1C2=O | 50 µM | Cryptosporidium parvum | - | - | inhibition | - | <10% |
| CN[C@H]1CC[C@@H](c2ccc(Cl)c(Cl)c2)c2ccccc21 | - | Cryptococcus neoformans | 92BC2-45 | - | MIC90 | broth dilution | 6 µg/mL |
| Cc1[nH]nc2c1C(=O)c1c(O)ccc(O)c1C2=O | - | Cryptosporidium parvum | - | - | EC50 | - | 25–50 µM |
| C[C@@H](c1ncncc1F)[C@](O)(Cn1cncn1)c1ccc(F)cc1F | - | Cryptococcus gattii | CBS 10514 | - | MIC | broth dilution | 0.008 µg/mL |
| CCn1nc(C)c2c1C(=O)c1ccccc1C2=O | 100 µM | Cryptosporidium parvum | - | - | inhibition | - | <10% |
| Oc1cccc(C=Nc2ccccc2O)c1 | - | Cryptococcus gattii | 196L/03 | - | MIC99 | - | 8 µg/mL |
| NC[C@@H]1O[C@H](O[C@H]2[C@@H](O)[C@H](O[C@@H]3[C@@H](O)[C@H](N)C[C@H](N)[C@H]3O[C@H]3O[C@H](CO)[C@@H](O)[C@H](O)[C@H]3N)O[C@@H]2CO)[C@H](N)[C@@H](O)[C@@H]1O | 1000 µg/mL | Cryptosporidium parvum | IOWA | MDCK | inhibition | luminescence | 58.4% |
| CCOC(=O)c1c(C)nc(NCCCCNc2ccnc3cc(Cl)ccc23)nc1-c1ccc(F)cc1 | - | Cryptococcus neoformans | ATCC 62066 | - | MIC99 | - | 8 µg/mL |
| C[C@@H](c1ncncc1F)[C@](O)(Cn1cncn1)c1ccc(F)cc1F | - | Cryptococcus gattii | VG IIb | - | MIC50 | broth dilution | 0.063 µg/mL |
| C[C@@H]1[C@H](O)[C@@H](C)/C=C/C=C/C=C/C=C/C=C/C=C/C=C/[C@H](O[C@@H]2O[C@H](C)[C@@H](O)[C@H](N)[C@@H]2O)C[C@@H]2O[C@](O)(C[C@@H](O)C[C@@H](O)[C@H](O)CC[C@@H](O)C[C@@H](O)CC(=O)O[C@H]1C)C[C@H](O)[C@H]2C(=O)O | - | Cryptococcus neoformans | Clinical isolate (IM 031633) | - | MIC | broth dilution | 0.13 µg/mL |

Repeating the final 2 entries:

| structure | dose | organism | strain | cells | endpoint | read by | value |
|---|---|---|---|---|---|---|---|
| C[C@@H](c1ncncc1F)[C@](O)(Cn1cncn1)c1ccc(F)cc1F | - | Cryptococcus gattii | VG IIb | - | MIC50 | broth dilution | 0.063 µg/mL |
| C[C@@H]1[C@H](O)[C@@H](C)/C=C/C=C/C=C/C=C/C=C/C=C/C=C/[C@H](O[C@@H]2O[C@H](C)[C@@H](O)[C@H](N)[C@@H]2O)C[C@@H]2O[C@](O)(C[C@@H](O)C[C@@H](O)[C@H](O)CC[C@@H](O)C[C@@H](O)CC(=O)O[C@H]1C)C[C@H](O)[C@H]2C(=O)O | - | Cryptococcus neoformans | Clinical isolate (IM 031633) | - | MIC | broth dilution | 0.13 µg/mL |